Pooled drug test results. Numbers come from NIAID ChemDB, via PubChem.

Shared fields: tests in culture; agent: HIV-1; endpoint: inhibition

Percent inhibition refers to the dose given; in toxicity tests it is the harm to the cells.

smiles | cell line | read by | strain | dose | value
Cc1ccc(C)c2c1NC(=O)C2CC(=O)N[C@@H](Cc1ccccc1)C(=O)N(C)c1ccc(F)cc1 |  | fluorescence | NL4-3 | 2 µM | 0%
CC(=O)Oc1ccc2[nH]cc(C(=O)C(=O)N3CCN(C(=O)c4ccccc4)CC3)c2c1 | MT-2 | RT activity | BRU | 10 µM | 75.8%
C[S+](CC[C@H](N)C(=O)[O-])C[C@H]1O[C@@H](n2cnc3c(N)ncnc32)[C@H](O)[C@@H]1O | PBMC | p24 | IIIB | 33 µg/mL | 33%
CCCC1CN(C(=O)c2ccccc2)CCN1C(=O)C(=O)c1c[nH]c2c(C(=O)OC)cccc12 | HeLa + HELA CD4+/CCR5 | luciferase |  | 10 µM | 95%
c1cc(CNCCCNC2CCCCC2)cc(CNc2nc(N3CCNCC3)nc3nc[nH]c23)c1 | TZM-bl | luciferase | IIIB | 10 µM | 14%
CC(C)[C@H](NC(=O)CCCNC(=O)[C@]12CCC(C)(C)C[C@H]1C1=CC[C@@H]3[C@@]4(C)C[C@@H](O)[C@H](O)C(C)(C)[C@@H]4CC[C@@]3(C)[C@]1(C)CC2)C(=O)O | MT-2 | p24 / ELISA | pNL4-3 | 25 µM | -30.2%
CC1=C(C(=O)O)C(c2ccc(C)cc2)NC(=O)N1 | HEK293T | p24 / ELISA |  | 100 µM | 42.6%
C[C@H](CCC(=O)NCCCCN(CCCNC(=O)CC[C@@H](C)[C@H]1CC[C@H]2[C@@H]3[C@H](OS(=O)(=O)O)C[C@@H]4C[C@H](OS(=O)(=O)O)CC[C@]4(C)[C@H]3C[C@H](OS(=O)(=O)O)[C@]12C)C(=O)CC[C@@H](C)[C@H]1CC[C@H]2[C@@H]3[C@H](OS(=O)(=O)O)C[C@@H]4C[C@H](OS(=O)(=O)O)CC[C@]4(C)[C@H]3C[C@H](OS(=O)(=O)O)[C@]12C)[C@H]1CC[C@H]2[C@@H]3[C@H](OS(=O)(=O)O)C[C@@H]4C[C@H](OS(=O)(=O)O)CC[C@]4(C)[C@H]3C[C@H](OS(=O)(=O)O)[C@]12C | U87-CD4-CCR5 + U87 | luciferase | Pseudotyped recombinant replication-defective | 100 µg/mL | 85%
CC1=C(C(=O)OCc2ccccc2)C(c2ccco2)NC(=O)N1 | HEK293T | p24 / ELISA |  | 100 µM | 22.5%
CCN(C(=O)[C@H](Cc1ccccc1)NC(=O)Cc1cccc2ccccc12)c1ccccc1 |  | fluorescence | NL4-3 | 2 µM | 53%
Cc1ccc(C(=S)NNC(=O)Cn2c(=O)oc3ccccc32)cc1 | HeLa | p24 / ELISA | NL4-3 | 100 µM | 42%
CC1(C)[C@@H](O[C@H]2O[C@H](C(=O)O)[C@@H](O)[C@H](O)[C@H]2O[C@@H]2O[C@H](C(=O)O)[C@@H](O)[C@H](O)[C@H]2O)CC[C@]2(C)[C@H]3C(=O)C=C4[C@@H]5C[C@@](C)(C(=O)O)CC[C@]5(C)CC[C@@]4(C)[C@]3(C)CC[C@@H]12 | MT-4 | antigen | IIIB | 6 µM | 3.9%
CC1=C(C(=O)O)C(/C=C/c2ccccc2)NC(=O)N1 | HEK293T | p24 / ELISA |  | 100 µM | 4.5%
Cc1ccc(C(=O)NNC(=O)Cn2c(=O)oc3ccccc32)cc1 | HeLa | p24 / ELISA | NL4-3 | 100 µM | 10%
Cc1ccc(C)c2c1NC(=O)C2CC(=O)N[C@@H](Cc1ccccc1)C(=O)N(C)c1ccccc1 |  | fluorescence | NL4-3 | 2 µM | 0%
COC(=O)CCCCCNC(=O)[C@]12CCC(C)(C)C[C@H]1C1=CC[C@@H]3[C@@]4(C)C[C@@H](O)[C@H](O)C(C)(C)[C@@H]4CC[C@@]3(C)[C@]1(C)CC2 | MT-2 | p24 / ELISA | pNL4-3 | 10 µM | 30.4%
Nc1ccn([C@H]2C=C[C@@H](CO)O2)c(=O)n1 | MT-4 | antigen | IIIB | 0.1 µM | 20%
O=c1oc2ccccc2n1Cc1nnc(Nc2ccc(F)cc2)s1 | HeLa | p24 / ELISA | NL4-3 | 100 µM | 31%
Cc1cc(C(=O)N2CCN(C(=O)C(=O)c3c[nH]c4c(F)ccc(F)c34)CC2)oc1C | HeLa + HELA CD4+/CCR5 | luciferase |  | 10 µM | >98%
CN(C(=O)[C@H](Cc1ccccc1)NC(=O)CN1C(=O)NC2(CCCCC2)C1=O)c1ccc(Cl)cc1 |  | fluorescence | NL4-3 | 20 µM | 98%
Cc1ccc(Nc2nnc(Cn3c(=O)oc4ccccc43)s2)cc1 | HeLa | p24 / ELISA | NL4-3 | 100 µM | 72%
Cc1cccc2c1NC(=O)C2CC(=O)N[C@@H](Cc1ccccc1)C(=O)N(C)c1cccc(Cl)c1 |  | fluorescence | NL4-3 | 2 µM | 14%
COc1cccc2[nH]cc(C(=O)C(=O)N3CCN(C(=O)c4cccc(N)c4)C[C@H]3C)c12 | HeLa + HELA CD4+/CCR5 | luciferase |  | 10 µM | >98%
Cc1cc(=O)c2c(O)c3c(O)cc(O)c4c5c(O)cc(O)c6c(O)c7c(=O)cc(C)c8c1c2c(c34)c(c65)c78 | CEM | cytopathic effect / p24 / ELISA | LAV-1 | 1 µg/mL | 99%
CC1(C)CC[C@]2(C(=O)O)CC[C@]3(C)C(=CC[C@@H]4[C@@]5(C)C[C@@H](O)[C@H](O)C(C)(C)[C@@H]5CC[C@]43C)[C@@H]2C1 | MT-2 | p24 / ELISA | pNL4-3 | 10 µM | 43.7%
Cc1ccc(F)c2c(C(=O)C(=O)N3CCN(C(=O)c4ccccc4)CC3)c[nH]c12 | HeLa + HELA CD4+/CCR5 | luciferase |  | 10 µM | >98%
CC1(C)CC[C@]2(C(=O)NCC(=O)O)CC[C@]3(C)C(=CC[C@@H]4[C@@]5(C)C[C@@H](O)[C@H](O)C(C)(C)[C@@H]5CC[C@]43C)[C@@H]2C1 | MT-2 | p24 / ELISA | pNL4-3 | 10 µM | -62.1%
COc1ccc(Cl)c2[nH]cc(C(=O)C(=O)N3CCN(C(=O)c4ccccn4)C[C@H]3C)c12 | HeLa + HELA CD4+/CCR5 | luciferase |  | 10 µM | >98%
CCN(C(=O)[C@H](Cc1ccccc1)NC(=O)CN1C(=O)NC2(CCCCC2)C1=O)c1ccccc1 |  | fluorescence | NL4-3 | 20 µM | 92%

Conditions beyond the fields shown may differ between rows. An empty or dashed field is not shown.